Test results reported in paper PMC6072100, “Exploring the links between peptoid antibacterial activity and toxicity” (MedChemComm, 2017).
Square brackets hold non-standard residues; d marks the D form. Peptide text beside a SMILES is read from it. N(4-F-Bzl)Gly = O=C(O)CNCc1ccc(F)cc1; Gly(N-2-aminoethyl) = NCCNCC(=O)O; Nspe = C[C@H](NCC(=O)O)c1ccccc1; NhArg = N=C(N)NCCCCNCC(=O)O; Nphe = O=C(O)CNCc1ccccc1; Nlys = NCCCCNCC(=O)O

Columns and labels:
Assay type in all cases: cell-based
[1] = test system: Pseudomonas aeruginosa PA01 (ATCC 15692); details: for Selectivity Index HaCaT, P. aeruginosa: ED50 HaCaT / MIC P. aeruginosa; for Selectivity Index HepG2, P. aeruginosa: ED50 HepG2 / MIC P. aeruginosa; for Average selectivity P. aeruginosa: average of selectivity to HaCaT and HepG2, selectivity = toxicity/activity
Method: (§1) Escherichia coli K-12 wild-type strain (W3110/ATCC27325, F^–, λ^–, rpoS(Am), rph-1, Inv(rrnD-rrnE)), Pseudomonas aeruginosa PA01 (ATCC 15692) Staphylococcus aureus (3R7089 strain Oxford/ATCC9144) and Staphylococcus epidermidis (laboratory strain from clinical isolate) were selected for bacteriological studies as representative Gram-negative (E. coli and P. aeruginosa) and Gram-positive (S. aureus and S. epidermidis) species. Bacterial cultures were prepared by streaking bacterial strains onto LB agar plates with an inoculation loop and incubated overnight at 37 °C. A single colony was selected and placed in 5 mL of Iso-sensitest broth (Oxoid, ThermoScientific) and incubated with shaking for 16–18 h at 37 °C to provide liquid cultures for testing.
(§2) MIC values were obtained according to the protocol described by J. M. Andrews et al.[58] and were conducted in 96-well plates (Sarstedt). Bacteria were grown from overnight cultures in Iso-sensitest broth to an A650nm of 0.07 equivalent to a 0.5 MacFarland standard (240 μM BaCl2 in 0.18 M H2SO4). This culture was diluted ten-fold with Iso-sensitest broth before use. Peptoids were initially dissolved in DMSO (5 mM) and diluted further in Iso-sensitest broth to achieve a concentration range of 4–200 μM using 2-fold serial dilutions. 50 μl of inoculum and 50 μl of peptoid solution were added to each test well (final concentration range of 2–100 μM). Experiments were performed in triplicate. A positive control for bacterial growth contained only the inoculum and Iso-sensitest broth. Other controls contained the inoculum and serial dilutions of ampicillin (from 250 μg mL^–1 to 2 μg mL^–1), serial dilutions of DMSO and the inoculum to confirm no inhibitory effect on bacterial growth, and Iso-sensitest broth alone as a sterile control. […] Quantitative data was attained from absorbance values using a Biotek Synergy H4 plate reader.
(§3) Antibacterial MIC determination
as §1, with “(W3110 / ATCC27325, F-, λ-,” for “(W3110/ATCC27325, F^–, λ^–,”, “Oxford / ATCC9144)” for “Oxford/ATCC9144)”, “°C.” for “°C. A single colony was selected and placed in 5 mL of Iso-sensitest broth (Oxoid, ThermoScientific) and incubated with shaking for 16–18 h at 37 °C to provide liquid cultures for testing.”
(§4) A single colony was selected and placed in 5 mL of Iso-sensitest broth (Oxoid, ThermoScientific) and incubated with shaking for 16-18 h at 37 °C to provide liquid […]
(§5) MIC values were obtained according to the protocol described by J. M. Andrews et al.1 and were conducted in 96-well plates (Sarstedt). Bacteria were grown from overnight cultures in Iso-sensitest broth to an A650nm of 0.07 equivalent to a 0.5 MacFarland standard (240 μM BaCl2 in 0.18 M H2SO4). This culture was diluted ten-fold with Iso-sensitest broth before use. Peptoids were initially dissolved in DMSO (5 mM) and diluted further in Iso-sensitest broth to achieve a concentration range of 4 – 200 µM using 2-fold serial dilutions. 50 μl of inoculum and 50 μl of peptoid solution were added to each test well (final concentration range of 2 – 100 µM). Experiments were performed in triplicate. A positive control for bacterial growth contained only the inoculum and Iso-sensitest broth. Other controls contained the inoculum and serial dilutions of ampicillin (from 250 µg/mL to 2 µg/mL), serial dilutions of DMSO and the inoculum to confirm no inhibitory effect on bacterial growth, and Iso-sensitest broth alone as a sterile control. […]
(§6) growth after incubation at 37 °C for 16 h with shaking. Quantitative data was attained from absorbance values using a Biotek Synergy H4 plate reader.

[2] = test system: Staphylococcus epidermidis (laboratory strain from clinical isolate); details: for Selectivity Index HaCaT, S. epidermidis: ED50 HaCaT / MIC S. epidermidis; for Selectivity Index HepG2, S. epidermidis: ED50 HepG2 / MIC S. epidermidis; for Average selectivity S. epidermidis: average of selectivity to HaCaT and HepG2, selectivity = toxicity/activity
Method: as §1, §2, §3
as §1, with “(W3110 / ATCC27325, F-, λ-,” for “(W3110/ATCC27325, F^–, λ^–,”, “Oxford / ATCC9144)” for “Oxford/ATCC9144)”, “°C.” for “°C. A single colony was selected and placed in 5 mL of Iso-sensitest broth (Oxoid, ThermoScientific) and incubated with shaking for 16–18 h at 37 °C to provide liquid cultures for testing.”
as §4, §5, §6

[3] = test system: Staphylococcus aureus (3R7089 strain Oxford/ATCC9144); details: for Selectivity Index HaCaT, S. aureus: ED50 HaCaT / MIC S. aureus; for Selectivity Index HepG2, S. aureus: ED50 HepG2 / MIC S. aureus; for Average selectivity S. aureus: average of selectivity to HaCaT and HepG2, selectivity = toxicity/activity
Method: as §1, §2, §3
as §1, with “(W3110 / ATCC27325, F-, λ-,” for “(W3110/ATCC27325, F^–, λ^–,”, “Oxford / ATCC9144)” for “Oxford/ATCC9144)”, “°C.” for “°C. A single colony was selected and placed in 5 mL of Iso-sensitest broth (Oxoid, ThermoScientific) and incubated with shaking for 16–18 h at 37 °C to provide liquid cultures for testing.”
as §4, §5, §6

**Q.** For (NhArgNmfbNmfb)4 [Peptoid 36], which “Selectivity Index HaCaT, P. aeruginosa” value [1] is on record?
**A.** 2

**Q.** And the “Selectivity Index HepG2, P. aeruginosa” value [1]?
**A.** 2

**Q.** And the “Average selectivity P. aeruginosa” value [1]?
**A.** 2

**Q.** What about the “Selectivity Index HaCaT, S. epidermidis” value [2] of the same compound?
**A.** 14

**Q.** And the “Selectivity Index HepG2, S. epidermidis” value [2]?
**A.** 11

**Q.** What about the “Average selectivity S. epidermidis” value [2] of the same compound?
**A.** 12

**Q.** What about the “Selectivity Index HaCaT, S. aureus” value [3] of the same compound?
**A.** 14

**Q.** And the “Selectivity Index HepG2, S. aureus” value [3]?
**A.** 11

**Q.** What about the “Average selectivity S. aureus” value [3] of the same compound?
**A.** 12

**Q.** What does the source list for `C[C@@H](c1ccccc1)N(CC(N)=O)C(=O)CN(C(=O)CN(CCCCN)C(=O)CN(Cc1ccc(F)cc1)C(=O)CN(Cc1ccc(F)cc1)C(=O)CN(CCCCN)C(=O)CN(C(=O)CN(C(=O)CNCCCCN)[C@@H](C)c1ccccc1)[C@@H](C)c1ccccc1)[C@@H](C)c1ccccc1` [Peptoid 29, (NLysNspeNspe)(NLysNpfbNpfb)(NLysNspeNspe)]?
**A.** Selectivity Index HaCaT, P. aeruginosa [1]: 3; Selectivity Index HepG2, P. aeruginosa [1]: 2; Average selectivity P. aeruginosa [1]: 3; Selectivity Index HaCaT, S. epidermidis [2]: 33; Selectivity Index HepG2, S. epidermidis [2]: 22; Average selectivity S. epidermidis [2]: 28; Selectivity Index HaCaT, S. aureus [3]: 22; Selectivity Index HepG2, S. aureus [3]: 14; Average selectivity S. aureus [3]: 21

**Q.** `C[C@@H](c1ccccc1)N(CC(N)=O)C(=O)CN(C(=O)CN(CCCCNC(=N)N)C(=O)CN(C(=O)CN(C(=O)CN(CCCCNC(=N)N)C(=O)CN(C(=O)CN(C(=O)CN(CCCCN)C(=O)CN(C(=O)CN(C(=O)CNCCCCN)[C@@H](C)c1ccccc1)[C@@H](C)c1ccccc1)[C@@H](C)c1ccccc1)[C@@H](C)c1ccccc1)[C@@H](C)c1ccccc1)[C@@H](C)c1ccccc1)[C@@H](C)c1ccccc1` [Peptoid 41, (NLysNspeNspe)2(NhArgNspeNspe)2] (H-[Nlys][Nspe][Nspe][Nlys][Nspe][Nspe][NhArg][Nspe][Nspe][NhArg][Nspe][Nspe]-NH2) was tested. Which “Average selectivity P. aeruginosa” value [1] did it give?
**A.** > 3

**Q.** What about the “Average selectivity S. aureus” value [3] of the same compound?
**A.** > 6

**Q.** For `N=C(N)NCCCCNCC(=O)N(CC(=O)N(CC(=O)N(CCCCNC(=N)N)CC(=O)N(CC(=O)N(CC(=O)N(CCCCNC(=N)N)CC(=O)N(CC(=O)N(CC(=O)N(CCCCNC(=N)N)CC(=O)N(CC(=O)N(CC(N)=O)Cc1ccccc1)Cc1ccccc1)Cc1ccccc1)Cc1ccccc1)Cc1ccccc1)Cc1ccccc1)Cc1ccccc1)Cc1ccccc1` [Peptoid 33, (NhArgNpheNphe)4] (H-[NhArg][Nphe][Nphe][NhArg][Nphe][Nphe][NhArg][Nphe][Nphe][NhArg][Nphe][Nphe]-NH2), which “Average selectivity P. aeruginosa” value [1] is on record?
**A.** > 4

**Q.** And the “Average selectivity S. epidermidis” value [2]?
**A.** > 50

**Q.** For `NCCCCNCC(=O)N(CC(=O)N(CC(=O)N(CCCCN)CC(=O)N(CC(=O)N(CC(=O)N(CCCCN)CC(=O)N(CC(=O)N(CC(N)=O)Cc1ccc(F)cc1)Cc1ccc(F)cc1)Cc1ccc(F)cc1)Cc1ccc(F)cc1)Cc1ccc(F)cc1)Cc1ccc(F)cc1` [Peptoid 23, (NLysNpfbNpfb)3] (H-[Nlys][N(4-F-Bzl)Gly][N(4-F-Bzl)Gly][Nlys][N(4-F-Bzl)Gly][N(4-F-Bzl)Gly][Nlys][N(4-F-Bzl)Gly][N(4-F-Bzl)Gly]-NH2), which “Average selectivity P. aeruginosa” value [1] is on record?
**A.** > 3

**Q.** What about the “Average selectivity S. epidermidis” value [2] of the same compound?
**A.** > 24

**Q.** And the “Average selectivity S. aureus” value [3]?
**A.** > 24

**Q.** For `C[C@@H](c1ccccc1)N(CC(N)=O)C(=O)CN(Cc1ccc(F)cc1)C(=O)CN(CCCCN)C(=O)CN(C(=O)CN(Cc1ccc(F)cc1)C(=O)CN(CCCCN)C(=O)CN(C(=O)CN(Cc1ccc(F)cc1)C(=O)CNCCCCN)[C@@H](C)c1ccccc1)[C@@H](C)c1ccccc1` [Peptoid 27, (NLysNpfbNspe)3], which “Selectivity Index HaCaT, P. aeruginosa” value [1] is on record?
**A.** 2

**Q.** And the “Selectivity Index HepG2, P. aeruginosa” value [1]?
**A.** 1

**Q.** And the “Average selectivity P. aeruginosa” value [1]?
**A.** 2

**Q.** What about the “Selectivity Index HaCaT, S. epidermidis” value [2] of the same compound?
**A.** 26

**Q.** What about the “Selectivity Index HepG2, S. epidermidis” value [2] of the same compound?
**A.** 18

**Q.** And the “Average selectivity S. epidermidis” value [2]?
**A.** 22

**Q.** What about the “Selectivity Index HaCaT, S. aureus” value [3] of the same compound?
**A.** 17

**Q.** What about the “Selectivity Index HepG2, S. aureus” value [3] of the same compound?
**A.** 12

**Q.** What about the “Average selectivity S. aureus” value [3] of the same compound?
**A.** 15

**Q.** How did the “Average selectivity P. aeruginosa” value [1] turn out when `NCCNCC(=O)N(CC(=O)N(CC(=O)N(CCN)CC(=O)N(CC(=O)N(CC(=O)N(CCN)CC(=O)N(CC(=O)N(CC(=O)N(CCN)CC(=O)N(CC(=O)N(CC(N)=O)Cc1ccccc1)Cc1ccccc1)Cc1ccccc1)Cc1ccccc1)Cc1ccccc1)Cc1ccccc1)Cc1ccccc1)Cc1ccccc1` [Peptoid 7, (NaeNpheNphe)4] (H-[Gly(N-2-aminoethyl)][Nphe][Nphe][Gly(N-2-aminoethyl)][Nphe][Nphe][Gly(N-2-aminoethyl)][Nphe][Nphe][Gly(N-2-aminoethyl)][Nphe][Nphe]-NH2) was run?
**A.** > 2

**Q.** What about the “Average selectivity S. epidermidis” value [2] of the same compound?
**A.** > 17

**Q.** And the “Average selectivity S. aureus” value [3]?
**A.** > 50
